A mixed list of measured activities; the numbers were collected in NIAID ChemDB.

Common to all: tests on isolated targets; protein: CCR5; read-out: IC50

ICn is the concentration giving n% inhibition. Neighbouring rows are from separate reports.

compound | method | value
CCCCOCCOc1ccc(-c2ccc3c(c2)C=C(C(=O)Nc2ccc(S(=O)Cc4nncn4CCC)cc2)CCN3CC(C)C)cc1 | radiometric | 0.0026 µM
CCCCOCCOc1ccc(-c2ccc3c(c2)C=C(C(=O)Nc2ccc(CN(C)C4CCOCC4)cc2)CCN3CC(C)C)cc1 | radiometric | 0.0036 µM
CN(C[C@@H](CCN1CCC2(CC1)CS(=O)c1ccccc12)c1ccc(Cl)c(Cl)c1)S(=O)(=O)c1cccs1 | radioligand binding / binding | 0.066 µM
CCCCOCCOc1ccc(-c2ccc3c(c2)C=C(C(=O)Nc2ccc(S(=O)Cc4ncnn4C)cc2)CCN3CC(C)C)cc1 | radiometric | 0.035 µM
CS(=O)(=O)N1CCC(C(=O)N(CCCN2CCC(Cc3ccc(N)cc3)CC2)c2ccc(Cl)c(Cl)c2)CC1 | radiometric | 0.0092 µM
CCCCOCCOc1ccc(-c2ccc3c(c2)C=C(C(=O)Nc2ccc(CN(C)C4CCOCC4)cc2)CCN3Cc2nccn2C)cc1 | radiometric | 0.012 µM
CCCCOCCOc1ccc(-c2ccc3c(c2)C=C(C(=O)Nc2ccc(S(=O)Cc4cnnn4CCC)cc2)CCN3CC(C)C)cc1 | radiometric | 0.012 µM
CN(C[C@@H](CCN1CCC2(CC1)CN(S(C)(=O)=O)c1ccccc12)c1ccc(Cl)c(Cl)c1)S(=O)(=O)c1ccccc1 | radioligand binding / binding | 0.5 µM
CN1CC(C(=O)N(CCCN2CCC(CCc3ccccc3)CC2)c2ccccc2)CC1=O | radiometric | 1.1 µM
CCN(C[C@@H](CCN1CCC2(CC1)CSc1ccccc12)c1ccc(Cl)c(Cl)c1)C(=O)c1ccccc1 | radioligand binding / binding | 10 µM
O=C(C1CCCCC1)N1C[C@@H](CN2CCC(c3ccccc3)CC2)[C@](O)(c2ccccc2)C1 | radiometric | ~2 µM
CCCCOCCOc1ccc(-c2ccc3c(c2)C=C(C(=O)Nc2ccc(CN(C)C4CCOCC4)cc2)CCN3C)cc1 | radiometric | 0.021 µM
Cc1ccc(N(CCCN2CCC(Cc3ccccc3)CC2)C(=O)Nc2ccc(Cl)cc2)cc1 | radiometric | 0.011 µM
CCCCOCCOc1ccc(-c2ccc3c(c2)C=C(C(=O)Nc2ccc(CN(C)C4CCOCC4)cc2)CCN3Cc2ccnn2C)cc1 | radiometric | 0.01 µM
CS(=O)(=O)N1CCC(C(=O)N(CCCN2CCC(Cc3ccccc3)CC2)c2ccccc2)CC1 | radiometric | 0.04 µM
CN1CC(C(=O)N(CCCN2CCC(Oc3ccccc3)CC2)c2ccccc2)CC1=O | radiometric | 1.6 µM
CN1CC(C(=O)N(CCCN2CCC(C(=O)c3ccc(F)cc3)CC2)c2ccccc2)CC1=O | radiometric | 1.9 µM
CN(C[C@@H](CCN1CCC2(CC1)CS(=O)c1ccccc12)c1ccc(Cl)c(Cl)c1)C(=O)N(C)c1ccccc1 | radioligand binding / binding | >10 µM
O=C(Nc1ccc(Cl)cc1)N(CCCN1CCC(Cc2ccccc2)CC1)c1ccccc1 | radiometric | 0.0059 µM
c1ccc(CN2C[C@@H](CN3CCC(c4ccccc4)CC3)[C@H](c3ccccc3)C2)cc1 | radiometric | 0.152 µM
Cc1ccc(-c2ccc3c(c2)C=C(C(=O)Nc2ccc(CN(C)C4CCOCC4)cc2)CCN3C)cc1 | radiometric | 0.13 µM
O=C(Nc1ccc(Cl)cc1)N(CCCN1CCC(Cc2ccccc2)CC1)c1cccc(Cl)c1 | radiometric | 0.019 µM
CCCCOCCOc1ccc(-c2ccc3c(c2)C=C(C(=O)Nc2ccc([S@](=O)Cc4nncn4CCC)cc2)CCN3CC(C)C)cc1 | radiometric | 0.0044 µM
CN(Cc1ccccc1)C[C@@H](CCN1CCC2(CC1)CS(=O)c1ccccc12)c1ccc(Cl)c(Cl)c1 | radioligand binding / binding | >1 µM
Cc1ccc(-c2ccc3c(c2)C=C(C(=O)Nc2ccc(C[N+](C)(C)C4CCOCC4)cc2)CCC3)cc1 | radiometric | 0.0014 µM
CN(CC(CCN1CCC(c2ccccc2)CC1)c1ccccc1)S(=O)(=O)c1ccccc1 | radiometric | 0.12 µM
Cc1ccnc(C)c1C(=O)N1CCC(C)(N2CCN([C@@H](C)c3ccc(C(F)(F)F)cc3)[C@@H](C)C2)CC1 | fluorescence | >0.1 µM
CCCCOCCOc1ccc(-c2ccc3c(c2)C=C(C(=O)Nc2ccc(CN(C)C4CCOCC4)cc2)CCN3c2ccccc2)cc1 | radiometric | 0.0056 µM
CC(=O)N1CCCC(C(=O)N(CCCN2CCC(Cc3ccccc3)CC2)c2ccccc2)C1 | radiometric | 0.68 µM
CN1CC(C(=O)N(CCCN2CCC(C(=O)c3ccc(F)cc3)CC2)c2ccccc2)CC1=O | radiometric | 1.9 µM
CCCCOCCOc1ccc(-c2ccc3c(c2)C=C(C(=O)Nc2ccc(S(=O)(=O)Cc4cncn4CCC)cc2)CCN3CC(C)C)cc1.CCOC(C)=O | radiometric | 0.033 µM
CN(C[C@H](CCN1CCC2(CC1)CS(=O)c1ccccc12)c1ccc(Cl)c(Cl)c1)S(=O)(=O)c1ccccc1 | radioligand binding / binding | 0.87 µM
CC(C)S(=O)(=O)c1ccc(CC2CCN(CCCN(C(=O)C3CCN(S(C)(=O)=O)CC3)c3ccc(Cl)c(Cl)c3)CC2)cc1 | radiometric | 0.0015 µM
CCCCOCCOc1ccc(-c2ccc3c(c2)C=C(C(=O)Nc2ccc([S@@](=O)Cc4nncn4CCC)cc2)CCN3CCC)cc1 | radiometric | 0.0016 µM
O=C(NC[C@@H](CCN1CCC2(CC1)CS(=O)(=O)c1ccccc12)c1ccc(Cl)c(Cl)c1)c1ccccc1 | radioligand binding / binding | >0.1 µM
O=C(C1CCNCC1)N(CCCN1CCC(Cc2ccccc2)CC1)c1ccccc1 | radiometric | 4.3 µM
CCCCOCCOc1ccc(-c2ccc3c(c2)C=C(C(=O)Nc2ccc(CN(C)C4CCOCC4)cc2)CCN3CC)cc1 | radiometric | 0.0056 µM

A second listing of 4 rows from above:

CC(=O)N1CCCC(C(=O)N(CCCN2CCC(Cc3ccccc3)CC2)c2ccccc2)C1 ; method: radiometric ; value: 0.68 µM
CN1CC(C(=O)N(CCCN2CCC(C(=O)c3ccc(F)cc3)CC2)c2ccccc2)CC1=O ; method: radiometric ; value: 1.9 µM
CCCCOCCOc1ccc(-c2ccc3c(c2)C=C(C(=O)Nc2ccc(CN(C)C4CCOCC4)cc2)CCN3CC)cc1 ; method: radiometric ; value: 0.0056 µM
CCCCOCCOc1ccc(-c2ccc3c(c2)C=C(C(=O)Nc2ccc(S(=O)Cc4nncn4CCC)cc2)CCN3CC(C)C)cc1 ; method: radiometric ; value: 0.0026 µM